From US20220347299A1, “FLUORESCENT SYSTEMS FOR BIOLOGICAL IMAGING AND USES THEREOF” (LIGHTOX LIMITED, priority 2019, published 2022) come the findings set out here.

For one data set, the system named is HaCaT keratinocytes. Description: Co-staining with organelle markers, co-localisation (PCC). The data set is classed as cell-based. The settings on record: for average PCC Value with LysoTracker / average PCC Value with MitoTracker / average PCC Value with Nile Red / subcellular localisation in HaCaT keratinocytes (summary): HaCaT; for average PCC Value with LysoTracker / average PCC Value with MitoTracker / average PCC Value with Nile Red: 1 μM compound; for average PCC Value with LysoTracker / average PCC Value with MitoTracker / average PCC Value with Nile Red / co-localisation with Anti-lamin A/C (no PCC value): 30 minutes; for average PCC Value with LysoTracker: LysoTracker Red DND-99; for average PCC Value with MitoTracker: MitoTracker Deep Red; for subcellular localisation in HaCaT keratinocytes (summary): co-staining with organelle markers; for co-localisation with Anti-lamin A/C (no PCC value): fixed HaCaT, 5 μM compound in PBS, anti-lamin A/C antibody. The procedure:
To study the localisation of compounds in biological cells, co-staining of compounds of formula I with specific organelle markers (fluorescent dyes and antibodies) within biological cells was conducted. The following compounds were studied: compounds 6, 7, 12, 13, 14 and 15. HaCaT keratinocyte cell lines were used for the following experimental procedures. The cells were incubated in cell culture media (94% Dulbecco's Modified Eagle Medium (DMEM), 5% Foetal Bovine Serum (FBS) and 1% Penicillin Streptomycin solution (Pen-Strep). The cells were plated in 8-well plates, at a concentration of 25,000 cells per ml. 200 μl of cell suspension was added to each well, and the cells were incubated for 2 days before staining and imaging was carried out. In order to visualise the mitochondria, cells were probed with the mitochondrial dye MitoTracker® Deep Red. Cells to be stained were incubated with 200 μl MitoTracker® Deep Red solution (200 nM MitoTracker® and 1 μM Formula I compound in cell culture media) per well (N=3) for 30 minutes. Nile Red was used to identify lipids within the cells. 200 μl Nile Red Lipophilic dye (10 μg/ml Nile Red and 1 μM Formula I compound in cell culture media) was added to each well (N=3) and incubated for 30 minutes. For the detection of lysosomes within the cells, LysoTracker® Red DND-99 dye was used. 200 μl LysoTracker® Red DND-99 (50 nM LysoTracker® and 1 μM Formula I compound solution in cell culture media) was added to each well (N=3) and incubated for 30 minutes. For visualisation of the endoplasmic reticulum (ER), cells were stained with BODIPY® ER-Tracker® Red. 200 μl BODIPY ER-Tracker® Red (1 μM BODIPY® and 1 μM Formula I compound solution in cell culture media) was added to each well (N=3) and incubated for 30 minutes. Following incubation, the cell culture media containing dye was removed, and cells were washed twice with 200 μl phosphate buffered saline (PBS). After washing, 200 μl PBS was added into each well for imaging. For visualisation of the nuclear lamina, cells were probed with an anti-lamin A/C antibody. The cells were plated on 22×22 mm cover slips (10,000 cells/ml) and incubated for 2 days before staining. The cells were washed with PBS to remove excess media before staining. The cells were fixed with 4% paraformaldehyde (PFA) for 10 minutes at room temperature, before being washed twice in PBS for 5 minutes. Following washing, the cells were permeabilised in 0.4% Triton X-100 in PBS for 10 minutes. The cells were subsequently washed three times in PBS for 5 minutes, before being incubated in blocking buffer (1% BSA, 0.1% fish gelatine and 0.1% Triton X-100 in PBS) for 15 minutes at room temperature. The cells were incubated in primary antibody (mouse anti-lamin A/C IgG in blocking buffer) for 1 hour at room temperature. The cells were then washed twice in blocking buffer and incubated in secondary antibody (anti-mouse Alexa-594 IgG in blocking buffer) for 30 minutes at room temperature. Cells were washed twice in PBS for 10 minutes at room temperature. For cell staining with compounds of formula I, 5 μM of the compound of formula I in PBS was added to the cells for 30 minutes at room temperature. Cells were then washed five times for 5 minutes in PBS. Following washing, the cells were mounted onto non-charged microscopy slides using 6 μl Mowiol® per cover slip as mounting media. A Zeiss 880 confocal microscope was used for all the imaging work. [table] Image) Coloc2 software was used to calculate co-localization statistics between the compounds of formula I and the organelle marker images. The background was subtracted from each image and a region of interest (ROI) was used to target the analysis. The point spread function (PSF) of each image was calculated as 2.0 and Coastes' iterations was set to 100. The statistic quantified was the Pearson's Correlation Coefficient (PCC). PCC gives a number ranging from +1 to −1:1=perfect co-localisation; 0=no relationship; and, −1=perfect anti-co-localisation. […]

A further data set concerns black-grass cells. Description: Labelling and confocal imaging of black-grass cell suspension culture. It is filed as cell-based. The settings on record: 1 μM, 1 h, room temperature; for subcellular localisation in black-grass cells: 405/460-540 nm.

In the case of `CC(C)(C)OC(=O)/C=C/c1ccc(C#Cc2ccc(N3CCNCC3)cc2)cc1` [Compound 6, tert-butyl (2E)-3-(4-{2-[4-(piperazin-1-yl)phenyl]ethynyl}phenyl)prop-2-enoate], in the data set on HaCaT keratinocytes, the “average PCC Value with LysoTracker” value was found to be 0.81; the “average PCC Value with MitoTracker” value worked out at 0.08; the “average PCC Value with Nile Red” value is reported as 0.42; the “subcellular localisation in HaCaT keratinocytes (summary)” value (from here on “subcellular localisation … (summary)”) was “primarily localise to the lysosomes with some ER localisation and lipophilic staining”. In the data set on HaCaT keratinocytes, the “co-localisation with Anti-lamin A/C (no PCC value)” value (“co-localisation … (no PCC value)” for short) is reported as “Co-”.

As for `COC(=O)/C=C/c1ccc(C#Cc2ccc(N3CCNCC3)cc2)cc1` [Compound 7, methyl (2E)-3-(4-{2-[4-(piperazin-1-yl)phenyl]ethynyl}phenyl)prop-2-enoate], in the data set with black-grass cells, the “fluorescence signal in black-grass cells” value is “acceptable signal” and the “subcellular localisation in black-grass cells” value is recorded as “label the inner cell membrane; however, compound 7 showed a stronger signal in the cell vesicle (possibly lipid vesicle)”. In the data set with HaCaT keratinocytes, the “average PCC Value with LysoTracker” value came out at 0.75; the “average PCC Value with MitoTracker” value is 0.12; the “average PCC Value with Nile Red” value is given as 0.39; the “subcellular localisation … (summary)” value is “primarily shows localisation to the lysosomes with some localisation to the ER and Golgi apparatus and also shows some lipophilic staining”. In the data set on HaCaT keratinocytes, the “co-localisation … (no PCC value)” value was “Co-”.

Consider `COC(=O)/C=C/c1ccc(C#Cc2ccc(N(C)CCN)cc2)cc1` [Compound 12, methyl (2E)-3-[4-(2-{4-[(2-aminoethyl)(methyl)amino]phenyl}ethynyl)phenyl]prop-2-enoate], for which, in the data set on black-grass cells, the “fluorescence signal in black-grass cells” value is “strong signal”; the “subcellular localisation in black-grass cells” value is “specifically label plasma membrane and cell plate”. Moreover, in the data set with HaCaT keratinocytes, the “average PCC Value with LysoTracker” value came to 0.73; the “average PCC Value with MitoTracker” value is listed as 0.14; the “average PCC Value with Nile Red” value is given as 0.37; the “subcellular localisation … (summary)” value was “primarily localise to the lysosomes with some ER localisation and lipophilic staining present”. Further, in the data set with HaCaT keratinocytes, the “co-localisation … (no PCC value)” value is recorded as “No Co-”.

For the molecule `COC(=O)/C=C/c1ccc(C#Cc2ccc(N3CCN(C(C)=O)CC3)cc2)cc1` [Compound 13, methyl (2E)-3-(4-{2-[4-(4-acetylpiperazin-1-yl)phenyl]ethynyl}phenyl) prop-2-enoate], in the data set on HaCaT keratinocytes, the “average PCC Value with LysoTracker” value is listed as 0.22, the “average PCC Value with MitoTracker” value is listed as −0.35, the “average PCC Value with Nile Red” value stood at 0.00 and the “subcellular localisation … (summary)” value is “no detectable co-localisation with the organelle markers used”. Besides, the “co-localisation … (no PCC value)” value in the data set on HaCaT keratinocytes was “No Co-”.

Take `COC(=O)/C=C/c1ccc(C#Cc2ccc(N3CCN(CCC[P+](c4ccccc4)(c4ccccc4)c4ccccc4)CC3)cc2)cc1.[Br-]` [Compound 14, (3-{4-[4-(2-{4-[(1E)-3-methoxy-3-oxoprop-1-en-1-yl]phenyl}ethynyl)phenyl]piperazin-1-yl}propyl)triphenylphosphonium bromide]: the “subcellular localisation in black-grass cells” value in the data set with black-grass cells was “label inner cell membrane as well as small vesicles”. In the data set on HaCaT keratinocytes, the “average PCC Value with LysoTracker” value was 0.11; the “average PCC Value with MitoTracker” value is reported as 0.65; the “average PCC Value with Nile Red” value amounted to 0.51; the “subcellular localisation … (summary)” value was “localisation to the mitochondria and ER with some lipophilic staining”. Also, in the data set on HaCaT keratinocytes, the “co-localisation … (no PCC value)” value is “No Co-”.

For the molecule `COC(=O)/C=C/c1ccc(C#Cc2ccc(N(C)CCNS(=O)(=O)c3ccc(C)cc3)cc2)cc1` [Compound 15, methyl (2E)-3-{4-[2-(4-{methyl[2-(4-methylbenzenesulfonamido)ethyl]amino}phenyl)ethynyl]phenyl}prop-2-enoate], the “subcellular localisation in black-grass cells” value in the data set on black-grass cells is given as “label small vesicle in black-grass cells”. Further, in the data set with HaCaT keratinocytes, the “average PCC Value with LysoTracker” value turned out to be 0.21, the “average PCC Value with MitoTracker” value is recorded as 0.16, the “average PCC Value with Nile Red” value is given as 0.82 and the “subcellular localisation … (summary)” value is reported as “primarily show lipophilic localisation”. Moreover, the “co-localisation … (no PCC value)” value in the data set on HaCaT keratinocytes is recorded as “No Co-”.
